Tested on: Plasmodium falciparum
Assay: Antiplasmodial activity against chloroquine-sensitive asexual erythrocytic stage of Plasmodium falciparum NF54 assessed as […] lactate dehydrogenase assay

| SMILES | IC50 |
| --- | --- |
| Brc1ccc2ncccc2c1N1C[C@@H](Br)[C@H](Br)C1 | > 20 µM |
| Brc1c(N2C[C@@H](Br)[C@H](Br)C2)cnc2ccccc12 | > 20 µM |

Source: ChEMBL document CHEMBL3407490, “Synthesis of functionalized 3-, 5-, 6- and 8-aminoquinolines via intermediate (3-pyrrolin-1-yl)- and (2-oxopyrrolidin-1-yl)quinolines and evaluation of their antiplasmodial and antifungal activity” (Eur J Med Chem, 2015)
